## Percent effect of library compounds

Mtb glucose medium: 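Phenotypic screen: M. tuberculosis growth, glucose 7H9 medium, 3 days; the read-out is not stated. Concentration: 500 µM. The record gives no direction; compounds that gave an IC50 in retests scored well above the rest, so higher reads as more growth inhibition. Size under these conditions: about 18,000 compounds, about 1,400 of them at 50% or above in at least one test.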
Mtb cholesterol medium: 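Phenotypic screen: M. tuberculosis growth, cholesterol and DPPC medium, 4 days; the read-out is not stated. Concentration: 500 µM. Direction is inferred from retests: higher values go with more growth inhibition. About 18,000 compounds were tested under these conditions; 5% (about 900) showed 50% or more at least once.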

Each number is a percent effect as filed.
The record does not define 0% and 100%; most values in the screen are far below 50% and negative numbers occur (in some assays of this library far below -100).
The entries come from a sample that favours strong results.
A dash means the value is not listed here; it may have been measured.

compound | Mtb glucose medium | Mtb cholesterol medium
CC(C)(C)OC(=O)Nc1ccc(C(N)=O)cc1 | 0.9895% | -
Cc1ccc(OCC(=O)Nc2nnn(C)n2)cc1 | 57.71% | 83.28%
CCc1ccc(CN2CCN(C(=O)C(C)N)CC2)s1 (stereo not drawn) | - | 4.359%
Cc1cccc(NC(=O)CN(C)Cc2nnsc2Cl)n1 | 54.81% | -
CC(C)OCC(=O)N1C[C@H](C2CC2)[C@@H](N)C1 | -0.6712% | -
N#Cc1cccc(CN2CCn3ccnc3C2)c1 | 0.5001% | -
CC(=O)Nc1ccc(C(=O)OC2CCCCC2=O)s1 (stereo not drawn) | 40.34% | -
CN1CCN(c2ccnc(SCC(N)=O)n2)CC1 | 90.51% | 95.45%
Cc1c(C(C)N[C@@H]2C=C[C@H](CO)C2)cnn1C (stereo partly drawn) | -2.087% | -
CC(C)C1CNCCO1 (stereo not drawn) | - | -15.37%
CN(C)C(=O)c1cccnc1SC(F)F | 13.37% | -
Nc1cc(C2CCN(C(=O)Cc3ccsc3)CC2)no1 | 54.65% | 49.29%
CCc1ccnc(C(=O)NC(C)(CO)CO)c1 | 7.293% | -
N#Cc1ccsc1NC(=O)CN1CCn2ccnc2C1 | -1.103% | -
COc1ccc(C(=O)Nc2nonc2NC(C)=O)cc1 | 51.48% | 52.87%
O=C(c1c[nH]c(=O)c2ccccc12)N1CCOCC1 | 2.198% | -
COCCCN1CCN(c2ccccc2OC)CC1 | 55.53% | 36.15%
C1CNC(CN2CCOCC2)C1 (stereo not drawn) | -9.413% | -
CC(C)N1CC(C(=O)NCc2c[nH]nn2)CC1=O (stereo not drawn) | -5.682% | -
N#CCC1(O)CN(Cc2ccc3c(c2)CCO3)C1 | 8.247% | -
Cc1ccc(NC(=O)CN2CCNC(=O)C2)c(Cl)c1 | - | -8.983%
COc1ccc(C(=O)NCCN2CCCC2)cc1 | - | 9.964%
Cc1nc(CN(C)C(=O)[C@H]2CCC[C@H](O)C2)no1 | - | -29.74%
CC(C)CC(C)Oc1cc(CNS(N)(=O)=O)ccn1 (stereo not drawn) | 56.82% | 38.59%
Nc1ccn(CCCN2CCCC2)n1 | -0.8123% | -
CCC(C)(C)NC(=O)CNc1ccc2c(c1)OCCO2 | 83.92% | 83.54%
CC(Cc1ccco1)NC(=O)c1cccnc1O (stereo not drawn) | 31.58% | -
Cc1ccc(C(=O)N2C[C@H](C3CC3)[C@@H](N)C2)s1 | - | 7.192%
CCOCc1nnc(C(C)N)o1 (stereo not drawn) | -0.3396% | -
Cc1n[nH]c(C)c1CN(C)Cc1ccncc1 | - | -9.993%
CCNC1=NN=C(c2ccc(OC)c(F)c2)CS1 | 78.7% | 84.32%
CNCCCC(=O)Nc1cccc2c1OCCO2 | 13.97% | -
COc1cccc(NC(=O)N2CCN(C3CC3)CC2)c1 | - | 14.65%
CC(N)c1cc[nH]c(=O)c1 (stereo not drawn) | - | -10.07%
COCc1ccc(C(=O)N2CC[C@@H](N)[C@H](O)C2)s1 | - | 4.939%
CCNCC(O)COc1ccc(C)cc1OC (stereo not drawn) | 75.09% | 18.57%
CCc1nc(C)c(C(=O)NCC2CCS(=O)(=O)CC2)o1 | - | 77.43%
CCC(CC)(CC)NC(=O)NCc1nccn1C | -3.25% | -
COCCCN1CCCN(C(=O)c2sccc2C)CC1 | 16.32% | -
Cc1ccc(S(=O)(=O)NCCCN)cc1Br | 42.88% | -
O=C(CSc1cccs1)NCC(=O)N1CCCC1 | 33.74% | -
CCc1ncc(C(=O)NCCNC(=O)c2ccoc2)s1 | 26.47% | -
CC(=O)c1ccc(C(=O)NCCN2CCCOC2=O)s1 | -19.32% | -
COc1ccc(OCCSc2n[nH]c(N)n2)cc1 | 65.58% | 68.29%
CC(C)NC(=O)NC(C)c1ccccc1 (stereo not drawn) | -4.065% | 68.58%
NCc1nc(-c2ccc(F)cc2)c[nH]1 | 54.16% | -
CCC[C@H]1CN(C(=O)c2scnc2C)C[C@@H]1N | 5.87% | -
CCC(Cn1ccnc1)NC(=O)c1cc(CO)ccn1 (stereo not drawn) | 14.08% | -
COc1cc(N2CCNCC2)ccc1F | 54.37% | -

Once more, the final 5:

* CC(C)NC(=O)NC(C)c1ccccc1 (stereo not drawn) : Mtb glucose medium: -4.065%; Mtb cholesterol medium: 68.58%
* NCc1nc(-c2ccc(F)cc2)c[nH]1 : Mtb glucose medium: 54.16%
* CCC[C@H]1CN(C(=O)c2scnc2C)C[C@@H]1N : Mtb glucose medium: 5.87%
* CCC(Cn1ccnc1)NC(=O)c1cc(CO)ccn1 (stereo not drawn) : Mtb glucose medium: 14.08%
* COc1cc(N2CCNCC2)ccc1F : Mtb glucose medium: 54.37%

Source: ChEMBL document CHEMBL3988442, “University of Dundee, Small-Polar-MMV Screening Library” (2021).